A mixed list of measured activities; the numbers were collected in NIAID ChemDB.

All rows: whole-cell or culture tests

Blank or dashed fields: not listed here. ECn is the concentration giving n% inhibition of infection, replication or growth. Conditions beyond the fields shown may differ between rows. Two numbers with a dash give a range or band. Percent inhibition refers to the dose given; in toxicity tests it is the harm to the cells. MIC50, MIC90 and the like: level of inhibition, or share of isolates inhibited.

compound	read-out	read by	strain	species	cell line	dose	result
Nc1ccc2cc([N+](=O)[O-])cc(S(=O)(=O)[O-])c2c1	inhibition	cytopathic effect	-	Rhinovirus	Human embryonic lung cells	50 µg/mL	10%
CCOC(=O)c1ccc(OCCC2CCN(c3ccc(C)nn3)CC2)cc1	EC50	neutral red	204-CV14 (ICAM-1 receptor group 10)	Rhinovirus	KB	-	0.596 µM
COc1ccc(-n2c(C(=O)N[C@H](C)c3ccccc3F)c3n(c2=O)CCN(C(=O)c2ccc(Br)c(Cl)c2)C3)cc1	EC50	PCR	-	Hepatitis B virus	HepG2.117	-	<0.1 µM
O=C(O)P(=O)(O)O	EC50	cytopathic effect	Oka PFA-resistant/A	Varicella zoster virus	HEL	-	240 µM
C[C@@H](NC(=O)C1C2CN(C(=O)c3ccc(Br)c(Cl)c3)CCN2C(=O)N1c1ccc(OC2COC2)cc1)c1ccccc1	EC50	PCR	-	Hepatitis B virus	HepG2.117	-	0.1–0.5 µM
Nc1ncnc2c1ncn2[C@@H]1C=C[C@@H](O)[C@H]1O	EC50	neutral red	Chicago	Measles virus	CV-1	-	1 µg/mL
C=Cc1cn([C@@H]2O[C@H](CO)[C@@H](O)[C@@H]2O)c(=O)[nH]c1=O	inhibition	plaque count	Asahikawa	Varicella zoster virus	HELF	0.01 µg/mL	0%
COc1cc(-c2ccc(N=Nc3ccc4c(S(=O)(=O)O)cc(S(=O)(=O)O)c(N)c4c3O)c(OC)c2)ccc1N=Nc1ccc2c(S(=O)(=O)O)cc(S(=O)(=O)O)c(N)c2c1O	inhibition	cytopathic effect	-	Herpes simplex virus	Human amnion AV3 cells	5 µg/mL	0%
C/C=C/C/C=C/CCC(=O)[C@H]1O[C@H]1C(N)=O	MIC	-	SJ261 (emrB::Tn10 kan)	Escherichia coli	-	-	20 µg/mL
Nc1ncnc2c1ncn2[C@H]1CC[C@H](O)[C@@H]1O	EC50	cytopathic effect	-	Measles virus	CV-1	-	<0.1 µg/mL
Nc1ccc(S(=O)(=O)[O-])c2c(S(=O)(=O)[O-])ccc(O)c12	inhibition	cytopathic effect	-	Rhinovirus	Human amnion AV3 cells	10 µg/mL	0%
Nc1ccn([C@@H]2O[C@H](CO)[C@@H](O)[C@@H]2O)c(=O)n1	MIC	-	FORD	Herpes simplex virus 1	-	-	4.4 µg/mL
COc1ccc(-n2c(C(=O)NCc3ccccc3OC)c3n(c2=O)CCN(C(=O)c2ccc(Cl)c(Cl)c2)C3)cc1	EC50	PCR	-	Hepatitis B virus	HepG2.117	-	0.1–0.5 µM
Nc1nc(N)c2ncn(CCOCP(=O)(O)O)c2n1	EC50	cytopathic effect	Oka CF1368-resistant	Varicella zoster virus	HEL	-	3.2 µM
COc1ccc(-n2c(C(=O)NCc3ccccc3)c3n(c2=O)C[C@H](C2CC2)N(C(=O)c2ccc(Br)c(Cl)c2)C3)cc1	EC50	PCR	-	Hepatitis B virus	HepG2.117	-	0.1–0.5 µM
Cc1ccc(-n2cc(C(C)(C)O)nn2)cc1C	inhibition	broth dilution	URM 4387	Candida albicans	-	2048 µg/mL	0%
Oc1cccc(C=Nc2ccccc2O)c1	MIC	broth dilution	WP	Cryptococcus neoformans	-	-	4 µg/mL
Nc1nc2c(ncn2COCCO)c(=O)[nH]1	inhibition	plaque count	Asahikawa	Varicella zoster virus	HELF	0.1 µg/mL	0%
Nc1ncnc2c1ncn2[C@H]1C[C@H](O)[C@H](O)[C@@H]1O	EC50	neutral red	-	Measles virus	CV-1	-	1 µg/mL
Nc1nc2c(ncn2CCC(CO)CO)c(=O)[nH]1	EC50	cytopathic effect	Clinical isolate VZV-26	Varicella zoster virus	HEL	-	3.54 µM
N#Cc1ccc(CSc2ncnc3c2ncn3[C@@H]2O[C@H](CO)[C@@H](O)[C@H]2O)cc1	inhibition	-	RH (WILD TYPE)	Toxoplasma gondii	-	25 µM	92.44%
C/C=C\[C@@H]1C[C@H](C(=O)O)N[C@H]1[C@@H](NC(C)=O)[C@](C)(CCC)OC	EC50	plaque count	Isolate G72	Influenza B virus	MDCK	-	<0.01 µg/mL
Nc1nc2c(ncn2COC(CO)CO)c(=O)[nH]1	EC90	plaque count	VR4760 (ganciclovir-resistant)	Human cytomegalovirus	-	-	93 µM
CC1(C)N=C(N)N=C(N)N1OCCCOc1cc(Cl)c(Cl)cc1Cl	MIC	-	2242	Mycobacterium avium complex	-	-	2 µg/mL
CO[C@H]1/C=C/O[C@@]2(C)Oc3c(C)c(O)c4c(O)c(c5c(c4c3C2=O)NC2(CCN(CC(C)C)CC2)N=5)=NC(=O)/C(C)=C\C=C\[C@H](C)[C@H](O)[C@@H](C)[C@@H](O)[C@@H](C)[C@H](OC(C)=O)[C@@H]1C	MIC	-	74	Mycobacterium avium intracellulare	-	-	0.062 µg/mL
C[C@@H]1Cn2c(c(C(=O)NCc3ccccc3-c3ncccn3)n(-c3ccc(-n4cccn4)cc3)c2=O)CN1C(=O)c1ccc(Br)c(Cl)c1	EC50	PCR	-	Hepatitis B virus	HepG2.2.15	-	0.1–0.5 µM
CCCC(CCC)C(NC(C)=O)C1C(N=C(N)N)CC(C(=O)O)C1O	EC50	-	LEE/40	Influenza B virus	MDCK	-	8 µM
COc1ccc(-n2c(C(=O)NCc3ccccc3)c3n(c2=O)CCN(C(=O)c2ccc(Cl)c(Cl)c2)C3)cc1	EC50	PCR	-	Hepatitis B virus	HepG2.117	-	0.5–5 µM
CC(C)(O)c1cn(-c2ccc([N+](=O)[O-])cc2)nn1	inhibition	broth dilution	URM 4804	Candida parapsilosis	-	2048 µg/mL	0%
CN[C@H]1CC[C@@H](c2ccc(Cl)c(Cl)c2)c2ccccc21	MIC90	broth dilution	C45	Cryptococcus neoformans	-	-	2 µg/mL
Nc1cccc(S(=O)(=O)O)c1	inhibition	cytopathic effect	TYPE 3	Adenovirus	Human embryonic lung cells	10 µg/mL	0%
CC(=O)N[C@H]1[C@H]([C@H](O)[C@H](O)CO)OC(C(=O)O)=C[C@@H]1N=C(N)N	EC50	-	H1N1 A/Beijing/252/95	Influenza A virus	MDCK	-	2.6 µM
Nc1ccn(C[C@@H](CO)OCP(=O)(O)O)c(=O)n1	EC50	cytopathic effect	OKA (WILD TYPE)	Varicella zoster virus	HEL	-	0.21 µM
CC(C)Nc1nc2cc(Cl)c(Cl)cc2n1[C@H]1O[C@@H](CO)[C@H](O)[C@@H]1O	EC50	hybridisation	C8803	Human cytomegalovirus	MRC-5	-	0.13 µM
OC[C@H]1O[C@@H](n2c(Cl)nc3cc(Cl)c(Cl)cc32)[C@H](O)[C@@H]1O	EC95	virus yield	R56	Human cytomegalovirus	-	-	5.2 µM
O=c1[nH]c(=O)n([C@H]2C[C@H](O)[C@@H](CO)O2)cc1I	inhibition	plaque count	Asahikawa	Varicella zoster virus	HELF	10 µg/mL	100%
CCOC(=O)c1c(C)nc(NCCCCNc2ccnc3cc(Cl)ccc23)nc1-c1ccccc1	MIC99	-	C-3-1	Cryptococcus neoformans	-	-	2 µg/mL
O=S(=O)(O)c1cccc2c(O)cccc12	inhibition	cytopathic effect	TYPE 3	Adenovirus	Human amnion AV3 cells	5 µg/mL	0%
Nc1ncnc2c1ncn2[C@@H]1CC[C@@H](O)[C@H]1O	EC50	neutral red	Halonen	Measles virus	CV-1	-	<0.1 µg/mL
OC[C@H]1O[C@@H](n2cnc3c(SCc4ccc(OC(F)(F)F)cc4)ncnc32)[C@H](O)[C@@H]1O	inhibition	-	RH adenosine kinase-deficient	Toxoplasma gondii	-	50 µM	4.9%
O=S(=O)([O-])c1ccc(O)cc1	inhibition	cytopathic effect	TYPE 3	Adenovirus	Human embryonic lung cells	5 µg/mL	0%
O=c1[nH]c(=O)n([C@H]2C[C@H](O)[C@@H](CO)O2)cc1/C=C/Br	inhibition	plaque count	Ohtomo	Varicella zoster virus	HELF	0.001 µg/mL	82%
CCOC(=O)/C=C/[C@H](C[C@@H]1CCNC1=O)NC(=O)[C@@H](CC(=O)[C@@H](NC(=O)c1cc(C)on1)C(C)C)Cc1ccc(F)cc1	EC50	cytopathic effect / visual reading	Isolate 11	Rhinovirus	OHIO HELA-I	-	0.03 µg/mL
Nc1ncnc2c1ncn2C[C@@H](CO)OCP(=O)(O)O	EC50	cytopathic effect	Oka CF1368-resistant	Varicella zoster virus	HEL	-	0.043 µM
CC(C)(O)c1cn(-c2ccc(Cl)cc2)nn1	MIC	broth dilution	URM 3627	Candida parapsilosis	-	-	64 µg/mL
CC(C)N=C(N)c1ccc2nc(-c3ccc4c(c3)Cc3cc(-c5nc6ccc(C(N)=NC(C)C)cc6[nH]5)ccc3-4)[nH]c2c1	MFC	-	Isolate 1 (strain 2-76)	Candida albicans	-	-	1.56 µg/mL
CNC(=O)c1cccc(-n2c(C(=O)NCc3ccccc3)c3n(c2=O)CCN(C(=O)c2ccc(Br)c(Cl)c2)C3)c1	EC50	PCR	-	Hepatitis B virus	HepG2.117	-	0.5–5 µM
Oc1ccc(O)c(C=Nc2ccccc2O)c1	MIC99	-	C-3-1	Cryptococcus neoformans	-	-	5.7 µg/mL
Nc1nc2c(ncn2COC(CO)CO)c(=O)[nH]1	EC50	hybridisation	XBAF.4 (alaalacysarg593DEL)	Human cytomegalovirus	MRC-5	-	4.1 µM
CCC(CC)[C@H](NC(C)=O)[C@@H]1[C@H](O)[C@@H](C(=O)O)C[C@H]1N=C(N)N	EC50	-	Influenza A/Beijing/32/92 (H3N2)	Influenza A virus	MDCK	-	0.07 µM
CC(C)(O)c1cn(-c2ccc3ccccc3c2)nn1	inhibition	broth dilution	URM 4984	Candida parapsilosis	-	2048 µg/mL	0%
CCOC(=O)c1c(C)nc(NCCCCNc2ccnc3cc(Cl)ccc23)nc1-c1ccc(F)cc1	MIC99	-	547/OTTI-97-PI-10	Cryptococcus gattii	-	-	16 µg/mL
C=CCc1ccc(OC)c(OC)c1	MIC90	turbidity	2427	Candida albicans	-	-	350 µg/mL
O=c1[nH]c(=O)n([C@@H]2O[C@H](CO)[C@@H](O)[C@@H]2O)cc1/C=C/Cl	inhibition	plaque count	YS	Varicella zoster virus	HELF	0.001 µg/mL	53%
Cc1ccc(C(=O)Nc2ccc(S(=O)(=O)O)c3cc(S(=O)(=O)O)cc(S(=O)(=O)O)c23)cc1NC(=O)c1cccc(NC(=O)Nc2cccc(C(=O)Nc3cc(C(=O)Nc4ccc(S(=O)(=O)O)c5cc(S(=O)(=O)O)cc(S(=O)(=O)O)c45)ccc3C)c2)c1	inhibition	cytopathic effect	-	Herpes simplex virus	Human amnion AV3 cells	50 µg/mL	100%

Again, the opening 5 rows:

compound,read-out,read by,strain,species,cell line,dose,result
Nc1ccc2cc([N+](=O)[O-])cc(S(=O)(=O)[O-])c2c1,inhibition,cytopathic effect,-,Rhinovirus,Human embryonic lung cells,50 µg/mL,10%
CCOC(=O)c1ccc(OCCC2CCN(c3ccc(C)nn3)CC2)cc1,EC50,neutral red,204-CV14 (ICAM-1 receptor group 10),Rhinovirus,KB,-,0.596 µM
COc1ccc(-n2c(C(=O)N[C@H](C)c3ccccc3F)c3n(c2=O)CCN(C(=O)c2ccc(Br)c(Cl)c2)C3)cc1,EC50,PCR,-,Hepatitis B virus,HepG2.117,-,<0.1 µM
O=C(O)P(=O)(O)O,EC50,cytopathic effect,Oka PFA-resistant/A,Varicella zoster virus,HEL,-,240 µM
C[C@@H](NC(=O)C1C2CN(C(=O)c3ccc(Br)c(Cl)c3)CCN2C(=O)N1c1ccc(OC2COC2)cc1)c1ccccc1,EC50,PCR,-,Hepatitis B virus,HepG2.117,-,0.1–0.5 µM